Laboratory results: PubChem BioAssay AID1259414 (Drosophila RNAi Screening Center, 2018)
Assay: 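Genome-wide screen for host control of endosymbiont load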 (primary screen). System: Drosophila JW18 cells infected with Wolbachia. Reagents: long dsRNA against Drosophila genes, 0.25 µg dsRNA per well of a 384-well plate. Duration: 5 days. Conditions: cells persistently infected with Wolbachia before knock-down; no added drug. Measured: 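Imaged fluorescence in situ signal for Wolbachia 23S rRNA per DAPI-counted host cell, given as a robust z-score within each plate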. Direction: Wolbachia per cell robust z: higher = more Wolbachia per host cell than the plate typical. Call rule: 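Active if absolute robust z reaches 1.5 in two or more of three replicates, leaving out multi- or no-target dsRNAs, genes unexpressed in JW18 and A1 wells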.
The screen tested about 24,000 reagents; shown is a random part of those with a known target gene and a result. Of all reagents, about 1,210 (5%) got an active call. 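Inactive calls also include excluded dsRNAs with several or no targets, genes unexpressed in JW18, and well A1, regardless of score.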 A number with no mark means an inactive call. Reagents against one gene are numbered here. Names joined by + are all predicted targets of the reagent.

Gene,dsRNA no.,"Wolbachia per cell robust z, rep 1","Wolbachia per cell robust z, rep 2","Wolbachia per cell robust z, rep 3"
CG13733,1,1.05,0.413,-0.136
CG1172,1,-2,0.395,0.346
CG1172,2,-1.55,-0.565,-0.121
CG1172,3,1.31,-0.0648,0.0391
CG15375,1,0.765,-0.209,0.849
CG15375,2,-0.8,-1.18,-1.21
CG42271,1,0.773,-0.223,1.47
CG42271,2,-2.63,-0.906,-0.987
CG42271,3,-1.04,0.403,0.69
CG42271,4,-6.19 (active),-2.08,-2.43
CG9705,1,-1.05,0.599,0.791
Tango11,1,-0.671,-0.508,-1.93
Tango11,2,-1.32,-0.832,-2.55
Hsp70Aa + Hsp70Ab,1,-0.368,-0.469,-2.29
Hsp70Aa + Hsp70Ab,2,-0.678,-7.07,0.015
CG32532,1,0.681,0.636,0.671
CG32532,2,-6.56,0.619,0.576
CG32532,3,0.544,-0.771,0.824
CG1578,1,-5.28,0.0767,-0.656
CG1578,2,-0.908,-0.283,-1.29
CG14245,1,-4.08,0.372,1.24
CG14245,2,-0.33,0.522,-0.399
RpL23A,1,0.0533,-0.32,2.2
RpL23A,2,0.583,1.04,1.09
RpL23A,3,1.6 (active),5.76,3.73
CG12885,1,-2.96,-0.356,0.178
CG12885,2,0.616,0.677,0.719
mst,1,-0.738,0.323,0.502
ND-B17,1,1.11,0.176,1.15
CG10055,1,-0.00194,-1.14,-1.61
ttm50,1,-1.26,-0.75,0.17
Jon65Aiv,1,-0.526,-0.736,-1.58
Jon65Aiv,2,0.793,-3.99,-0.536

7 entries already listed, arranged by “Wolbachia per cell robust z, rep 3”, descending:
Gene,dsRNA no.,"Wolbachia per cell robust z, rep 1","Wolbachia per cell robust z, rep 2","Wolbachia per cell robust z, rep 3"
CG9705,1,-1.05,0.599,0.791
CG32532,1,0.681,0.636,0.671
CG32532,2,-6.56,0.619,0.576
Hsp70Aa + Hsp70Ab,2,-0.678,-7.07,0.015
Tango11,1,-0.671,-0.508,-1.93
Hsp70Aa + Hsp70Ab,1,-0.368,-0.469,-2.29
Tango11,2,-1.32,-0.832,-2.55

Additional records follow.
Gene,dsRNA no.,"Wolbachia per cell robust z, rep 1","Wolbachia per cell robust z, rep 2","Wolbachia per cell robust z, rep 3"
RpL35,1,2.51 (active),2.98,2.67
CG4593,1,-3.97 (active),-1.21,-2.67
CG4593,2,0.629,0.255,0.337
CG7781,1,-9.54,-0.94,0.0167
CG13364,1,-0.125,1.03,-0.197
CG13364,2,0.626,1.03,-0.411
CG13364,3,0.281 (active),-2.38,-1.78
Or22b,1,-0.0285,0.134,-0.91
CG4480,1,-0.972,-0.0578,0.0224
snu,1,-12.2,0.207,0.0401
Msr-110,1,-0.772,1.23,0.187
Msr-110,2,-4.6,-0.974,-0.443
pyx,1,-4.05,-3.65,-2.44
pyx,2,-0.0862,-0.0982,-0.856
pyx,3,0.619,-1.01,1.32
nht,1,0.803,0.941,-0.606
CG34457,1,-0.833,-0.639,-2
LUBEL,1,-8.05,0.0588,0.17
LUBEL,2,0.633,0.382,0.762
CG15111,1,-0.853,-0.472,-1.1
Cwc25,1,0.978,0.686,-0.312
CG33700,1,0.103,0.689,1.04
CG17687,1,-0.114,0.828,-0.734
CG17687,2,0.495,-0.171,0.246
Adf1,1,0.288,0.517,0.778
Adf1,2,0.37,-0.0866,-2.4
CG34290,1,-0.848,-0.567,-0.216
RpS10a,1,-7.65,0.578,0.216
RpS10a,2,-0.257,1.67,0.481
Syx7,1,0.833,0.773,0.459
AGO2,1,0.505,-0.213,0.508
AGO2,2,-0.0743,-0.136,1.12
RpS12,1,2.15 (active),3.78,4.09
ItgaPS4,1,-0.368,-0.75,-0.152
Pvr,1,4.5 (active),7.88,9.67
Pvr,2,-1.43,-1.21,-2.34
CG31862,1,-0.82,-1.16,-0.0531
CR14033,1,-0.648,0.479,0.466
CR14033,2,0.65,0.366,0.33
CG13313,1,-0.884,1.18,-2.84
CG13313,2,0.0707,0.268,-0.783
CG31326,1,-0.0763,0.181,1.53
CG31326,2,-2.91,-2.34,-1.85
CG5446,1,0.944,1.27,-0.231
CG4743,1,-1.58 (active),-2.14,-0.0537
Spt20,1,-2.31 (active),1.62,-3.38
Spt20,2,0.637,1.2,2.96
CG32536 + CG32537,1,0.531,0.504,1.04
IA-2,1,-0.566,-0.328,0.21
IA-2,2,-0.16 (active),1.79,2
IA-2,3,-1.14,-0.805,-1.2
IA-2,4,-1.02,-0.148,0.521
CG43366,1,-0.154,-4.71,0.0648
CG43366,2,-3.29,0.293,-0.0289
CG43366,3,0.304,0.402,-0.261
CG43366,4,0.581,0.369,1.08
